{"source": "ChEMBL document CHEMBL1122059", "about": "“Structural modifications of anguidin and antitumor activities of its analogues” (1982)", "key": {"Mus musculus [1]": {"system": "Mus musculus", "test": "Mice with madisto 109 surviving on day 60 post implant at dose 1.2 mg/kg"}, "Mus musculus [2]": {"system": "Mus musculus", "test": "Mice with L1210 tumor surviving on day 60 post implant at dose 1.6 mg/kg"}, "Mus musculus [3]": {"system": "Mus musculus", "test": "Mice with B16 melanoma surviving on day 60 post implant at dose 0.5 mg/kg"}, "Mus musculus [4]": {"system": "Mus musculus", "test": "Mice with P-388 leukemia surviving on day 30 post implant at dose 1.6 mg/kg"}, "Mus musculus [5]": {"system": "Mus musculus", "test": "Mice with madisto 109 surviving on day 60 post implant at dose 0.8-1.6 mg/kg"}, "Mus musculus [6]": {"system": "Mus musculus", "test": "Mice with L1210 tumor surviving on day 60 post implant at dose 6.4 mg/kg"}, "Mus musculus [7]": {"system": "Mus musculus", "test": "Mice with B16 melanoma surviving on day 60 post implant at dose 8.0 mg/kg"}, "Mus musculus [8]": {"system": "Mus musculus", "test": "Mice with P-388 leukemia surviving on day 30 post implant at dose 6.4 mg/kg"}, "Mus musculus [9]": {"system": "Mus musculus", "test": "Mice with L1210 tumor surviving on day 60 post implant at dose 2.4 mg/kg"}, "Mus musculus [10]": {"system": "Mus musculus", "test": "Mice with P-388 leukemia surviving on day 30 post implant at dose 0.8 mg/kg"}, "Mus musculus [11]": {"system": "Mus musculus", "test": "Mice with B16 melanoma surviving on day 60 post implant at dose 0.8 mg/kg"}}, "data": [{"smiles": "CC(=O)OC[C@]12CC(=O)C(C)=CC1OC1C(=O)[C@@H](OC(C)=O)[C@@]2(C)C12CO2", "note": "(some centres not stated)", "values": [{"measurement": "T/C", "setting": "Mus musculus [1]", "result": 203, "unit": "%"}, {"measurement": "T/C", "setting": "Mus musculus [2]", "result": 236, "unit": "%"}, {"measurement": "T/C", "setting": "Mus musculus [3]", "result": 177, "unit": "%"}, {"measurement": "T/C", "setting": "Mus musculus [4]", "result": 306, "unit": "%"}, {"measurement": "T/C", "setting": "Mus musculus [5]", "result": 144, "unit": "%"}]}, {"smiles": "CC1=C[C@H]2OC3[C@H](O)[C@@H](OC(=O)CCl)[C@@](C)(C34CO4)[C@@]2(COC(=O)CCl)CC1", "note": "(some centres not stated)", "values": [{"measurement": "T/C", "setting": "Mus musculus [6]", "result": 175, "unit": "%"}, {"measurement": "T/C", "setting": "Mus musculus [7]", "result": 146, "unit": "%"}, {"measurement": "T/C", "setting": "Mus musculus [8]", "result": 212, "unit": "%"}]}, {"smiles": "C=C(C)C(=O)OC[C@]12CCC(C)=CC1OC1C(=O)[C@@H](OC(=O)CCl)[C@@]2(C)C12CO2", "note": "(some centres not stated)", "values": [{"measurement": "T/C", "setting": "Mus musculus [9]", "result": 183, "unit": "%"}, {"measurement": "T/C", "setting": "Mus musculus [10]", "result": 211, "unit": "%"}]}, {"smiles": "CC(=O)OC[C@]12CCC(C)=CC1OC1C(=O)[C@@H](OC(=O)CCl)[C@@]2(C)C12CO2", "note": "(some centres not stated)", "values": [{"measurement": "T/C", "setting": "Mus musculus [11]", "result": 147, "unit": "%"}, {"measurement": "T/C", "setting": "Mus musculus [10]", "result": 233, "unit": "%"}]}]}
